Measured values taken from PMC8061081 (Fitoterapia, 2021).

Target: SARS-CoV-2 3CL^pro (Severe acute respiratory syndrome coronavirus 2, UniProt P0DTD1)
Format: biochemical
Details: 3CLpro 4 μg/mL, preincubation 37 °C 40 min, substrate 20 μM, PBS pH 7.4

Row | Substance | IC50 [µM]
1 | ginkgolide C | > 100
2 | ginkgolide B | > 100
